Assay: peptide made by a vendor
Settings: whole synthesis, 220 nm

Substance: H-MFYPDSRCRGPSET-OH
- final HPLC purity: >95%

Reference: PMC11013444 (Molecules, 2024)
